Values from PubChem BioAssay AID504761 (Drosophila RNAi Screening Center, 2011)

- Screen: 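Genome-wide fly cell screen for genes dengue virus requires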 (primary screen)
- Cells: D.Mel-2 cells from Drosophila
- Reagent: long dsRNA against Drosophila genes
- Challenge: infection with dengue virus type 2; dose and infection time not stated
- Measurement: 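Cells stained for dengue envelope protein and imaged; percent of infected cells per well on duplicate plates, ranked by infection, with stained nuclei counted for cell number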
- Direction: infection score: higher = more virus-infected cells
- Active means: 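Very low infection ranking in both replicate wells (chance probability at most 0.065), then a retest showing infection dropped 1.5-fold or more at p below 0.05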
- Calls: active = confirmed: knock-down lowers infection; inactive = not picked or not confirmed
The screen tested about 22,000 reagents; shown is an unselected part of those that have a named target and a result. Of all reagents, 116 (0.52%) were called active. 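Calls depend on retest data that are not deposited; infection was ranked per plate without normalising between plates; the unit of the infection score is not given.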 A number with no mark means an inactive call. Further read-outs or replicates are left out here. The record does not give: the amount of reagent, the time to read-out.

Depletion of plu (GeneID 44848) [DRSC07665] gave: infection score, replicate 1 = 2.32.
Knock-down of eIF4A (GeneID 33835) [DRSC03526] came out at: infection score, replicate 1 = 4.63.
Against eIF4A (GeneID 33835) [DRSC26043] the deposit lists infection score, replicate 1 = 6.97.
For CG13255 (GeneID 50109) [DRSC11702], the values are infection score, replicate 1 = 9.52.
For CG30376 (GeneID 246576) [DRSC05086], the entry reads infection score, replicate 1 = 3.49.
Knock-down of mtDNA-helicase (GeneID 34307) [DRSC02912] came out at: infection score, replicate 1 = 4.06.
Silencing of WASp (GeneID 43402) [DRSC15032] came out at: infection score, replicate 1 = 4.33.
Depletion of WASp (GeneID 43402) [DRSC26170] gave: infection score, replicate 1 = 11.4.
Against Fancd2 (GeneID 2768674) [DRSC15208] the deposit lists infection score, replicate 1 = 6.89.
Knock-down of Fancd2 (GeneID 2768674) [DRSC22763] resulted in: infection score, replicate 1 = 2.07.
sphinx1 (GeneID 318005) [DRSC10993] gave infection score, replicate 1 = 3.08.
sphinx1 (GeneID 318005) [DRSC24818] gave infection score, replicate 1 = 3.87.

Single entries from the list:
sphinx1 (GeneID 318005) [DRSC24818], infection score, replicate 1 = 3.87
Under “infection score, replicate 1”, WASp (GeneID 43402) [DRSC26170] is entered as 11.4

The listing continues:
Depletion of DIP-beta (GeneID 33125) [DRSC20489] gave: infection score, replicate 1 = 13.7.
After knock-down of DIP-beta (GeneID 33125) [DRSC20490] the results were infection score, replicate 1 = 9.45.
After knock-down of DIP-beta (GeneID 33125) [DRSC20505] the results were infection score, replicate 1 = 6.54.
ppk27 (GeneID 38440) [DRSC08168] gave infection score, replicate 1 = 0.89.
With knock-down of ppk27 (GeneID 38440) [DRSC22211], the record shows infection score, replicate 1 = 5.16.
Abd-B (GeneID 47763) [DRSC14098] scored infection score, replicate 1 = 5.57.
Abd-B (GeneID 47763) [DRSC14337] scored infection score, replicate 1 = 11.8.
Abd-B (GeneID 47763) [DRSC28796] gave infection score, replicate 1 = 12.8.
For dpr5 (GeneID 41381) [DRSC15766], the entry reads infection score, replicate 1 = 6.48.
dpr5 (GeneID 41381) [DRSC25239] scored infection score, replicate 1 = 0.79.
